Data as given in US20060166867A1, “Novel conjugates of polysaccharides and uses thereof” (priority 2003, published 2006).
Like-named read-outs stand apart in the source and are kept apart here.

System: MT2 cells
Type: cell-based
Method: Cytotoxicity of the various pAACs was determined using the trypan blue exclusion assay. In brief, a sample of the cell suspension was diluted 1:1 (v/v) with 0.4% trypan blue and the cells were counted using a hemocytometer. Results are expressed as the percentage of dead cells.
HIV-1 isolates were propagated by subculture in MT2 cells (Litovchick et al. (2001) supra). Aliquots of cell-free culture supernatants were used as viral inoculum. PAACs were dissolved in the RPMI 1640 medium. Cytotoxicity determinations were carried out in MT2 cells by trypan blue exclusion assay. Viral inhibition was determined by incubating MT2 or cMAGI HIV-1 reporter cells with 0.2-0.5 multiplicity of infection of HIV-1 wild type or resistant virus for 4 days at 37° C. in the presence or absence of various concentrations of pAACs. HIV-1 infection of cMAGI cells was determined by counting the number of HIV-1-infected cells (stained blue). The cytopathic effects of the viral infection of MT2 cells were also analyzed by microscopic assessment of syncytium formation.

[1] = Table 4, tryphan blue exclusion assay for MT2 cells

D-Arg-9-mer-neomycin [Compound 14]
Cytotoxicity [1]: 120 µM

D-Arg-6-mer-neomycin [Compound 11]
Cytotoxicity [1]: 155 µM

L-Arg-6-mer-neomycin [Compound 4]
Cytotoxicity (Table 3, trypan blue exclusion): 200 µM
toxicity (at concentrations as high as 200 μM): non-toxic

L-Arg-9-mer-neomycin [Compound 8]
Cytotoxicity (Table 3, trypan blue exclusion): 150 µM
